A mixed list of measured activities; the numbers were collected in NIAID ChemDB.

Shared fields: whole-cell or culture tests; organism: Aspergillus fumigatus

ECn: concentration that inhibits the pathogen or its effect by n%.

SMILES,strain or isolate,method,measure,mutations,result
COc1ccc(C(c2ccc(OC)cc2)n2cncn2)cc1,,agar,MIC90,,>256 µg/mL
Cc1cccc(/C=N\N(C)Cc2cccc3ccccc23)c1,,,MIC,,>64 µg/mL
CCC(C)n1ncn(-c2ccc(N3CCN(c4ccc(OC[C@H]5CO[C@](Cn6cncn6)(c6ccc(Cl)cc6Cl)O5)cc4)CC3)cc2)c1=O,25 isolates,,MIC90,,4 µg/mL
CCC1C=C(c2ccc(Cl)cc2)C(=O)O1,231,,MIC,,125 µM
CC(=O)Oc1cc(Cl)ccc1C(=O)N(C(C)=O)c1ccc(Br)cc1,231,,MIC,,≤31.25 µg/mL
Clc1ccc(C(c2ccccc2)n2ccnc2)cc1,,agar,MIC90,,4 µg/mL
CO[C@@H]1[C@H]2OC(C)(C)O[C@H]2O[C@@H]1C1=NOC(Cc2ccc(O)cc2)C1,,,MIC,,>50 µg/mL
CC1C=C(c2cc3ccccc3n2C)C(=O)O1,231,,MIC,,>125 µM
CCN1CCC(O)(/C=C/c2ccc(Cl)cc2)C(C(=O)/C=C/c2ccc(Cl)cc2)C1,20 strains,,MIC50,,2.92 µg/mL
Cc1onc(-c2ccccc2)c1C=O,Clinical isolates,,EC50,,45.79 µg/mL
C[C@@H](c1ncncc1F)[C@](O)(Cn1cncn1)c1ccc(F)cc1F,150 clinical isolates,,MIC50,,0.25 µg/mL
Nc1ncccc1-c1cc(Cc2ccc(COc3ccccn3)cc2)no1,,broth dilution,MIC90,,0.13 µg/mL
CCCCCCCC(=O)NC(CCCN)C(N)=O,ATCC 42203,broth dilution,MIC,,>100 µg/mL
C[C@@H](c1ncncc1F)[C@](O)(Cn1cncn1)c1ccc(F)cc1F,,,MIC50,,0.25 µg/mL
CN(Cc1cccc2ccsc12)/N=C\C#CC(C)(C)C,,,MIC,,>64 µg/mL
C[C@@H](c1ncncc1F)[C@](O)(Cn1cncn1)c1ccc(F)cc1F,35 isolates,,MIC90,,1 µg/mL
C[C@H]1[C@H](O)[C@@H](C)/C=C/C=C/C=C/C=C/C=C/C=C/C=C/[C@H](O[C@@H]2O[C@H](C)[C@@H](O)[C@H](N)[C@@H]2O)C[C@@H]2O[C@](O)(C[C@@H](O)C[C@@H](O)CC[C@H](O)[C@@H](O)C[C@@H](O)CC(=O)O[C@H]1C)C[C@H](O)[C@H]2C(=O)O,35 isolates,,Geometric mean MFC,,1.08 µg/mL
CCCCCOc1ccc(-c2cc(-c3ccc(C(=O)N[C@H]4C[C@@H](O)[C@@H](O)NC(=O)[C@@H]5[C@@H](O)[C@@H](C)CN5C(=O)[C@H]([C@H](O)CC(N)=O)NC(=O)[C@H]([C@H](O)[C@@H](O)c5ccc(O)c(OS(=O)(=O)O)c5)NC(=O)[C@@H]5C[C@@H](O)CN5C(=O)[C@H]([C@@H](C)O)NC4=O)cc3)no2)cc1,29 isolates,,MIC90,,0.0156 µg/mL
O=Cc1cc(-c2ccc(F)cc2)on1,Clinical isolates,,EC50,,>50 µg/mL
COc1ccc([C@H]2SCC(=O)N2c2nc(N3CCOCC3)n[nH]2)cc1OC,168.95,broth dilution,MIC,,100 µg/mL
CCC(C)n1ncn(-c2ccc(N3CCN(c4ccc(OC[C@H]5CO[C@](Cn6cncn6)(c6ccc(Cl)cc6Cl)O5)cc4)CC3)cc2)c1=O,17 isolates,,Geometric mean MIC,,0.121 µg/mL
C[C@@H](N1CCN(c2ccc(-n3cnnn3)cc2)C1=O)[C@](O)(Cn1cncn1)c1ccc(F)cc1F,IFO6344,,MIC,,>64 µg/mL
CO[C@@H]1[C@H]2OC(C)(C)O[C@H]2O[C@@H]1C1=NOC(CBr)C1,,,MIC,,>50 µg/mL
CCCCCCCC(=O)NC(CCCN)C(=O)NC(CCCN)C(=O)NC(CCCN)C(N)=O,ATCC 42203,broth dilution,MIC,,>100 µg/mL
CCC1C=C(c2ccc(Br)cc2)C(=O)O1,231,,MIC,,62.5 µM
CC(=O)N1CCN(c2ccc(OC[C@H]3CO[C@](Cn4ccnc4)(c4ccc(Cl)cc4Cl)O3)cc2)CC1,25 isolates,,MIC90,,16 µg/mL
CCCCCOc1ccc(-c2cc(-c3ccc(C(=O)N[C@H]4C[C@@H](O)[C@@H](O)NC(=O)[C@@H]5[C@@H](O)[C@@H](C)CN5C(=O)[C@H]([C@H](O)CC(N)=O)NC(=O)[C@H]([C@H](O)[C@@H](O)c5ccc(O)c(OS(=O)(=O)O)c5)NC(=O)[C@@H]5C[C@@H](O)CN5C(=O)[C@H]([C@@H](C)O)NC4=O)cc3)no2)cc1,,broth dilution,MIC50,,0.03 µg/mL
Nc1[nH]c(=O)ncc1F,17 isolates,,MIC50,,16 µg/mL
CC1C=C(c2ccc(Cl)cc2Cl)C(=O)O1,231,,MIC,,62.5 µM
Cc1ccc(-c2noc(C)c2C=O)cc1,Clinical isolates,,MIC,,50 µg/mL
CC(=O)Oc1cc(Cl)ccc1C(=O)Nc1cccc(Cl)c1,231,,MIC,,7.81 µg/mL
Cc1ccc([C@H]2SCC(=O)N2c2nc(N3CCOCC3)n[nH]2)cc1,168.95,broth dilution,MIC,,100 µg/mL
CN(Cc1cccc2ccsc12)/N=C\c1ccc2ccccc2c1,,,MIC,,>64 µg/mL
CC1(C)O[C@H]2O[C@H](C3=NOC(C#N)C3)[C@H](OCc3ccccc3)[C@H]2O1,,,MIC,,>50 µg/mL
C[C@@H]1[C@H](O)[C@@H](C)/C=C/C=C/C=C/C=C/C=C/C=C/C=C/[C@H](O[C@@H]2O[C@H](C)[C@@H](O)[C@H](N)[C@@H]2O)C[C@@H]2O[C@](O)(C[C@@H](O)C[C@@H](O)[C@H](O)CC[C@@H](O)C[C@@H](O)CC(=O)O[C@H]1C)C[C@H](O)[C@H]2C(=O)O,AF-294,broth dilution,EC50,,0.5 µg/mL
COc1ccc(CC2CC([C@H]3O[C@@H]4OC(C)(C)O[C@@H]4[C@H]3OCc3ccccc3)=NO2)cc1,,,MIC,,>50 µg/mL
CCCCCOc1ccc(-c2ccc(-c3ccc(C(=O)N[C@H]4C[C@@H](O)[C@@H](O)NC(=O)[C@@H]5[C@@H](O)[C@@H](C)CN5C(=O)[C@H]([C@H](C)O)NC(=O)[C@H]([C@H](O)[C@@H](O)c5ccc(O)cc5)NC(=O)[C@@H]5C[C@@H](O)CN5C(=O)[C@H]([C@H](C)O)NC4=O)cc3)cc2)cc1,93-19,,MFC,,>50 µg/mL
O=C(c1ccccc1)C(c1ccccc1)n1cnc2ccccc21,,agar,MIC90,,64 µg/mL
O=Cc1cc(-c2ccc(Cl)cc2)no1,Clinical isolates,,MIC,,50 µg/mL
Clc1ccc(C(c2ccccc2)n2nnc3ccccc32)cc1,,agar,MIC90,,>256 µg/mL
CN1CCN(c2n[nH]c(N3C(=O)CS[C@@H]3c3ccc4c(c3)OCO4)n2)CC1,165.86,broth dilution,MIC80,,50 µg/mL
CC1C=C(c2cccc3ccccc23)C(=O)O1,231,,MIC,,>125 µM
CCCCCOc1ccc(-c2ccc(-c3ccc(C(=O)N[C@H]4C[C@@H](O)[C@@H](O)NC(=O)[C@@H]5[C@@H](O)[C@@H](C)CN5C(=O)[C@H]([C@H](C)O)NC(=O)[C@H]([C@H](O)[C@@H](O)c5ccc(O)cc5)NC(=O)[C@@H]5C[C@@H](O)CN5C(=O)[C@H]([C@H](C)O)NC4=O)cc3)cc2)cc1,Isolate AF210,,MFC,,0.06 µg/mL
CC(=O)Oc1c(Cl)cccc1C(=O)Nc1ccc(Cl)c(Cl)c1,231,,MIC,,15.63 µg/mL
CO[C@@H]1[C@H]2OC(C)(C)O[C@H]2O[C@@H]1C1=NOC(OC(C)=O)C1,,,MIC,,>50 µg/mL
OO,,agar,MIC99,mpkC deletion,4000 µM
CC(=O)Oc1cc(Cl)ccc1C(=O)Nc1ccc(Cl)cc1,231,,MIC,,7.81 µg/mL
CN(Cc1cccc2ccsc12)/N=C\C=C\c1ccccc1,,,MIC,,>64 µg/mL
COc1ccc(CC2CC([C@H]3O[C@@H]4OC(C)(C)O[C@@H]4[C@H]3OC)=NO2)cc1,,,MIC,,>50 µg/mL
Cc1onc(-c2ccc(F)cc2)c1C=O,Clinical isolates,,EC50,,16.4 µg/mL
CO[C@@H]1[C@H]2OC(C)(C)O[C@H]2O[C@@H]1C1=NOC(C#N)C1,,,MIC,,>50 µg/mL
CN(Cc1cccc2ccccc12)/N=C\C#CC(C)(C)C,,,MIC,,>64 µg/mL
C[C@H]1[C@H](O)[C@@H](C)/C=C/C=C/C=C/C=C/C=C/C=C/C=C/[C@H](O[C@@H]2O[C@H](C)[C@@H](O)[C@H](N)[C@@H]2O)C[C@@H]2O[C@](O)(C[C@@H](O)C[C@@H](O)CC[C@H](O)[C@@H](O)C[C@@H](O)CC(=O)O[C@H]1C)C[C@H](O)[C@H]2C(=O)O,25 isolates,,MIC50,,4 µg/mL
CCCCCCCCCCCCCCCCCC(=O)NC(CCCN)C(N)=O,ATCC 42203,broth dilution,MIC,,>100 µg/mL
O=Cc1cc(-c2ccccc2Br)no1,Clinical isolates,,EC50,,36.61 µg/mL
C[C@@H](N1CCN(c2ccc(-n3cnnn3)cc2)C1=O)[C@@](O)(Cn1cncn1)c1ccc(F)cc1F,IFO6344,,MIC,,>64 µg/mL
CO[C@@H]1[C@H]2OC(C)(C)O[C@H]2O[C@@H]1C1=NOC(C(C)=O)C1,,,MIC,,>50 µg/mL
C[C@@H](c1ncncc1F)[C@](O)(Cn1cncn1)c1ccc(F)cc1F,28 isolates,,Geometric mean MIC,,0.08 µg/mL
CCCCCCCCCCCCCC(=O)NC(CCCN)C(=O)NC(CCCN)C(=O)NC(CCCN)C(=O)NC(CCCN)C(N)=O,ATCC 42203,broth dilution,MIC,,3.1 µg/mL
CCC1C=C(c2cccc(Cl)c2)C(=O)O1,231,,MIC,,62.5 µM
C[C@@H]1CCC2(OC1)OC1CC3C4C[C@H](O)[C@H]5C[C@@H](O)CC[C@]5(C)C4CC(=O)[C@]3(C)C1[C@@H]2C,ATCC 90906,,EC50,,10 µg/mL

The last 5 rows once more:

SMILES | strain or isolate | method | measure | mutations | result
CO[C@@H]1[C@H]2OC(C)(C)O[C@H]2O[C@@H]1C1=NOC(C(C)=O)C1 |  |  | MIC |  | >50 µg/mL
C[C@@H](c1ncncc1F)[C@](O)(Cn1cncn1)c1ccc(F)cc1F | 28 isolates |  | Geometric mean MIC |  | 0.08 µg/mL
CCCCCCCCCCCCCC(=O)NC(CCCN)C(=O)NC(CCCN)C(=O)NC(CCCN)C(=O)NC(CCCN)C(N)=O | ATCC 42203 | broth dilution | MIC |  | 3.1 µg/mL
CCC1C=C(c2cccc(Cl)c2)C(=O)O1 | 231 |  | MIC |  | 62.5 µM
C[C@@H]1CCC2(OC1)OC1CC3C4C[C@H](O)[C@H]5C[C@@H](O)CC[C@]5(C)C4CC(=O)[C@]3(C)C1[C@@H]2C | ATCC 90906 |  | EC50 |  | 10 µg/mL

Neighbouring rows are from separate reports. Blank or dashed fields: not listed here. A number after MIC or MFC names an inhibition level or a share of isolates.